Source: patent publication US6699989B1, “Antiviral and antimicrobial guanidine or biguanidine derivatives” (priority 2000, dated 2004)

Experiments:
[1] = test system: HIV-1; experiment: PBMC assay, virus production by reverse transcriptase activity; assay type: cell-based; settings: ROJO in PBMC, TC50/IC50
Description: Method 2: PBMC Assay Method (Peripheral Blood Mononuclear cell)—Description
This assay addresses the issue of providing a rationale for further evaluation of the compound by providing evidence of in vitro anti-HIV activity against a low passage clinical strain of HIV-1. These fresh human peripheral blood mononuclear cell assays use fresh human cells obtained from the American Red Cross from uninfected, normal human donors. Mononuclear cells from these blood samples are isolated by centrifugation and infected with low passage clinical strains of HIV-1 which have been obtained by culture of blood cells from HIV-infected patients with uninfected PBMCs. Since the PBMCs are not killed by HIV infection, endpoint quantification is performed by measurement of virus production in each well by reverse transcriptase assay or p24 ELISA. These assays provide evidence that the test compounds will have efficacy against viruses, which will likely be encountered in patients without genetic changes, introduced by passage in cell culture.
Thus, PBMCs assay measures the amount of virus released from the infected cells into the tissue culture supernatant. The activity of the test compound is measured by its ability to reduce the level of virus production relative to the virus controls (cells+virus with no added compound). In PBMC culture we use reverse transcriptase activity in the supernatant to quantify the amount of virus production from the infected cells. Endpoint quantification is performed at 6 days post-infection.
Fresh human peripheral blood lymphocytes (PBL) are isolated from voluntary Red Cross donors, seronegative for HIV and HBV. […]
In the standard PBL assay (MOI: 0.2), the assay was ended on day 7 following collection of cell free supernatant samples for reverse transcriptase activity assay. In the low MOI PBL assay (MOI: 0.02), supernatant samples were collected on day 6, day 11, and day 14 post-infection and analyzed for RT activity.

[2] = test system: HIV-1; settings: for ANTIVIRAL INDEX (AI) 25% / ANTIVIRAL INDEX (AI) 50% / ANTIVIRAL INDEX (AI) 95% / SI: CEM-SS, HIV1 RF; for SI: XTT assay

| Structure (SMILES) | TI [1] | TI ([1]; listed as BVS 10A) | therapeutic index ([2]; CEM-SS cells, TC50/IC50) | ANTIVIRAL INDEX (AI) 25% [2] | ANTIVIRAL INDEX (AI) 50% [2] | ANTIVIRAL INDEX (AI) 95% [2] | SI [2] |
| --- | --- | --- | --- | --- | --- | --- | --- |
| Cc1cn([C@H]2C[C@H](N=[N+]=[N-])[C@@H](CO)O2)c(=O)[nH]c1=O [AZT, reference compound] | TI = >40.0 | – | – | – | – | – | – |
| N=C(NCCCCCCNC(=N)NC(=N)N1CCN(c2cc3c(cc2F)c(=O)c(C(=O)O)cn3C2CC2)CC1)NC(=N)N1CCN(c2cc3c(cc2F)c(=O)c(C(=O)O)cn3C2CC2)CC1 [BVS-10A] | approximately 50 | TI = >39.4 | > 10 | >8.33 | >6.01 | >3.34 | SI: >6.01 |
| Nc1ccn([C@H]2CC[C@@H](CO)O2)c(=O)n1 [DDC, di-deoxycytosine, reference compound] | – | – | – | >754.29 | >485.51 | >4.73 | SI: >485.51 |
